Anti-infective test results gathered from many reports (values: NIAID ChemDB through PubChem).

Shared fields: whole-cell or culture tests; agent: Mycobacterium tuberculosis

Lines come from different laboratories, so protocols vary.

SMILES | mutations | tested at | strain or isolate | method | measure | value
Cc1ccc(NC(=O)CC/C(CC(=O)c2ccc(Cl)cc2)=N\NC(=O)C(=O)NN)cc1C |  |  | H37Rv | BACTEC | MIC bound | >12.5 µg/mL
COc1ccc(CNN(C(=O)c2ccncc2)C(=O)c2cnccn2)cc1 |  |  | H37Rv |  | MIC | 0.25 µg/mL
C[C@@H]1CC[C@@]2(NC1)O[C@H]1C[C@H]3[C@@H]4CC=C5C[C@@H](O)CC[C@]5(C)[C@H]4CC[C@]3(C)[C@H]1[C@@H]2C |  |  | H37Rv | BACTEC | MIC | ≥12.5 µg/mL
CCCCCCCOc1cccc(NC(=O)OC(C)CN2CCCCC2)c1 |  |  | My 331/88 |  | MIC | 8 µM
CCC1CN2CCc3cc(OC)c(OC)cc3C2CC1=O |  |  | H37Rv | BACTEC | MIC | ≥12.5 µg/mL
O=C(NN1C(=O)CSC1c1ccccc1F)c1ccncc1 |  |  | 16PI |  | MIC | >5 µg/mL
COc1ccc(C2CCC3=C(O2)C(=O)c2ccccc2C3=O)cc1 |  |  | H37Rv |  | MIC | >100 µg/mL
COc1ccc(-c2cc(-c3ccc4oc(=O)c(-c5ccccc5)c(C)c4c3)nc3c2oc2ccccc23)cc1 |  | 250 µg/mL | H37Rv | agar / visual reading | inhibition | 81%
O=C(c1ccncc1)N(NCc1cccc([N+](=O)[O-])c1)C(=O)c1cnccn1 |  |  | H37Rv |  | MIC | 0.25 µg/mL
O=S1(=O)c2ccccc2S(=O)(=O)c2ccccc21 |  |  | H37Rv | BACTEC | MIC | ≥12.5 µg/mL
CCCCCOc1cccc(NC(=O)OCCN2CCCCC2)c1 |  |  | My 331/88 |  | MIC | 32 µM
COc1ccc2c(c1)c1cc(CO)c(C)cc1n2C |  |  | H37Rv |  | MIC | >128 µM
Cc1ccc(-c2cc(-c3ccc4oc(=O)c(-c5ccccc5)c(C)c4c3)nc3c2Cc2ccccc2-3)cc1 |  | 250 µg/mL | H37Rv | agar / visual reading | inhibition | 51%
COc1ccc(OC)c([C@@H]2[C@@H](Cl)C(=O)N2NC2=Nc3ccccc3Sc3ccccc32)c1 |  |  | H37Rv | broth dilution | MIC | 500 µg/mL
CCC1=NC(N/N=C/c2ccco2)=N/C1=C/c1ccco1 |  | 12.5 µg/mL | H37Rv | BACTEC | inhibition | 97%
O=C1C2=C(OC(c3ccccc3)CC2)C(=O)c2ccccc21 |  |  | H37Rv |  | MIC | >100 µg/mL
CCOC(=O)c1cn(C)c2c(cc([N+](=O)[O-])c3cccnc32)c1=O | gyrA mutation A90V gyrB mutation Q540V |  | H37Rv |  | MIC90 | >50 µM
COc1cccc2c1C(=O)c1c(O)c3c(c(O)c1C2=O)CC(O)(C(C)=O)CC3OC1CC(NCC2(O)OC(C(=O)NCCCN(C)C)C(O)C2O)C(O)C(C)O1 |  |  | CS-R |  | MIC | 12.5 µg/mL
Cc1c(-c2ccccc2)c(=O)oc2ccc(-c3cc(-c4ccc(Cl)cc4)c4c(n3)-c3ccccc3C4)cc12 |  | 250 µg/mL | H37Rv | agar / visual reading | inhibition | 12%
COC(=O)Cc1cc([N+](=O)[O-])c(Oc2cc(C=O)cc(OC)c2O)c([N+](=O)[O-])c1 |  |  | H37Rv |  | MIC | 250–1000 µg/mL
Cc1ccc(N2CC(=O)N3CCCN3C(=O)C2)cc1 |  |  | H37Rv | BACTEC | MIC bound | >12.5 µg/mL
Cc1ccc(C2CC(c3cccs3)C3=C(O2)C(=O)c2ccccc2C3=O)cc1 |  |  | H37Rv |  | MIC | >100 µg/mL
O=C(Nc1cccc(C(=O)c2ccccc2)c1)NC12CC3CC(CC(C3)C1)C2 |  |  | H37Rv |  | MIC | 5.7 µg/mL
COC(=O)C1=C(C(=O)OC)P2(C)(C)N(C)C(=S)N2C1(c1ccccc1)c1ccccc1 |  | 12.5 µg/mL | H37Rv | BACTEC | inhibition | 10%
Cc1ccc(-c2cc(-c3ccc4oc(=O)c(-c5ccccc5)c(C)c4c3)nc3c2oc2ccccc23)cc1 |  |  | H37Rv | agar / visual reading | MIC | 125 µg/mL
CCCCCCOc1cccc(NC(=O)OCCN2CCCCC2)c1 |  |  | My 331/88 |  | MIC | 16 µM
Nc1nnc(S(=O)(=O)N2CCN(c3cc4c(cc3F)c(=O)c(C(=O)O)cn4C3CC3)CC2)s1 |  |  | H37Rv |  | MIC | 10 µg/mL
O=C1[C@H](Cl)[C@@H](c2cccc(Cl)c2Cl)N1NC1=Nc2ccccc2Sc2ccccc21 |  |  | H37Rv | broth dilution | MIC | 500 µg/mL
C/C=C/C(C(=O)NC(N)=O)C(C)C |  | 12.5 µg/mL | H37Rv | BACTEC | inhibition | 0%
O=C1CSC(c2ccc(Cl)cc2)N1NC1=Nc2ccccc2Sc2ccccc21 |  |  | H37Rv | broth dilution | MIC | 100 µg/mL
O=C(N/N=C/c1ccc(F)cc1)c1ccncc1 |  |  | 14PI |  | MIC | >5 µg/mL
C[C@H]1COC2(CCN(c3nc(=O)c4cc(C(F)(F)F)cc([N+](=O)[O-])c4s3)CC2)O1 |  |  | H37Rv |  | MIC | 0.003–0.006 µM
COC(=O)c1ccc(Oc2cc(C(OC(C)=O)OC(C)=O)cc(OC)c2OC(C)=O)cc1 |  |  | H37Rv |  | MIC | 31.25–62.5 µg/mL
O=S(=O)(NC1CCN(Cc2ccncc2)CC1)c1ccc(-n2cccn2)cc1 |  |  | H37Rv |  | MIC | 0.8–3.1 µM
O=C1OCC2(C(=O)OCc3ccccc3)C(=O)C(=O)N(C3CCCCC3)C12 |  |  | H37Rv | BACTEC | MIC bound | >12.5 µg/mL
CC(=O)O[C@H]1C[C@H]2[C@]3(C)CCC4C(C)(C)CCC[C@]4(C)[C@H]3C[C@@H](O)[C@]2(C)C2=C1COC2=O |  |  | H37Rv (ATCC 27294) | BACTEC | EC50 | <12.5 µg/mL
Cc1ccnc(NS(=O)(=O)c2ccc(N=Nc3ccc(N)nc3N)cc2)n1 |  |  | H37Rv | BACTEC | MIC bound | >12.5 µg/mL
O=[N+]([O-])c1ccc2nc(-c3ccccc3-c3nnc(-c4cccc(Cl)c4)o3)[nH]c2c1 |  | 12.5 µg/mL | H37Rv |  | inhibition | 79%
CCCCCCCn1c2ccccc2c2c(OC)c(CO)c(C)cc21 |  |  | H37Rv |  | MIC | 11 µM
CCn1cc(C(=O)O)c(=O)c2ccc(C)nc21 | gyrA mutation G88C |  | H37Rv |  | MIC90 | >50 µM
CC(=O)OC[C@@]12[C@H](CCC[C@]13CO3)C1C[C@@](C)(CCC3=CC(=O)OC3)[C@H](C)CC1C[C@@H]2O |  |  | H37Rv |  | MIC | >128 µg/mL
Cc1c(-c2ccccc2)c(=O)oc2ccc(-c3cc(-c4ccccc4)c4c(n3)-c3ccccc3C4)cc12 |  | 250 µg/mL | H37Rv | agar / visual reading | inhibition | 40%
CC(C)(C)Oc1cccc(NC(=O)NC23CCC4CC(CC2C4)C3)c1 |  |  | H37Rv |  | MIC | 0.2 µg/mL
COc1cc(C=O)cc2c1[nH]c1ccccc12 |  |  | H37Rv |  | MIC | >128 µM
CC(=O)Nc1c(F)c(N2CC(C)NC(C)C2)c(F)c2c1c(=O)c(C(=O)O)cn2C1CC1 |  |  | H37Rv |  | MIC | 10 µg/mL
Cc1cc(S(=O)(=O)Nc2nc(N)nc(N3CCOCC3)n2)c(S)cc1Cl |  | 12.5 µg/mL | H37Rv | BACTEC | inhibition | 0%
CC(C)[C@@H](C)/C=C/[C@@H](C)[C@H]1CC[C@H]2C3=CC=C4C[C@@H](O)CC[C@]4(C)[C@H]3CC[C@]12C |  |  | H37Rv |  | MIC | >128 µg/mL
COC(=O)Cc1cc(I)c(Oc2cc(C(Br)C(Br)[N+](=O)[O-])cc(OC)c2O)c(I)c1 |  |  | H37Rv |  | MIC | 31.25–125 µg/mL
CN[C@@H]1[C@H](O[C@H]2[C@H](O[C@H]3[C@H](O)[C@@H](O)[C@H](N=C(N)N)[C@@H](O)[C@@H]3N=C(N)N)O[C@@H](C)[C@]2(O)C=O)O[C@@H](CO)[C@H](O)[C@H]1O |  |  | K139 |  | MIC | ≥512 µg/mL
Cc1ccc(C2CC(c3ccc([N+](=O)[O-])cc3)C3=C(O2)c2ccccc2C(=O)C3=O)cc1 |  |  | H37Rv |  | MIC | 2.5 µg/mL
COc1ccc([C@@H]2[C@@H](Cl)C(=O)N2NC2=Nc3ccccc3Sc3ccccc32)cc1 |  |  | H37Rv | broth dilution | MIC | 1000 µg/mL
CC(C)[C@@H]1C2[C@H](O)[C@]3(O)[C@@H](C)CC[C@@H]4[C@@H](C)C[C@@H]1[C@@]43C(=O)C2(C)C |  |  | H37Rv |  | EC50 | >12.5 µg/mL
CCCCCCCOc1ccccc1NC(=O)OC(COCC)CN1CCCCC1 |  |  | My 331/88 |  | MIC | 62.5 µM
CCn1cc(C(=O)O)c(=O)c2cc(F)c(N3CCN(S(=O)(=O)c4nnc(N)s4)CC3)cc21 |  |  | H37Rv |  | MIC | 10 µg/mL
CCc1ccc2c(c1)[nH]c1ccccc12 |  |  | H37Rv |  | MIC | >128 µM
COc1ccc(OC)c(C2SCC(=O)N2NC2=Nc3ccccc3Sc3ccccc32)c1 |  |  | H37Rv | broth dilution | MIC | 500 µg/mL
CCCCCOc1cccc(NC(=O)OC(C)CN2CCCCC2)c1 |  |  | My 331/88 |  | MIC | 16 µM
O=C=NCCCCCCN1C(=O)N2C(c3ccccc3)N(CCCCCCN=C=O)C(=O)N2C1c1ccccc1 |  |  | H37Rv | resazurin | MIC bound | >6.25 µg/mL
CO[C@H]1/C=C/O[C@@]2(C)Oc3c(C)c(O)c4c(O)c(c(/C=N/N5CCN(C)CC5)c(O)c4c3C2=O)NC(=O)/C(C)=C\C=C\[C@H](C)[C@H](O)[C@@H](C)[C@@H](O)[C@@H](C)[C@H](OC(C)=O)[C@@H]1C |  |  | InhA OE |  | MIC | 0.01 µM
Cc1cc(N(CCO)c2ccccc2)nc(N)n1 |  | 12.5 µg/mL | H37Rv | BACTEC | inhibition | 16%
O=C(c1ccncc1)N(/N=C/c1ccc(Cl)cc1)C(=O)c1cnccn1 |  |  | 9 isolates (sensitive) |  | MIC | 0.5–2 µg/mL
CC(/C=C/[C@H](C)C(C)C)[C@H]1CC[C@H]2C3=CC=C4C[C@@H](O)CC[C@]4(C)C3=CC[C@]12C |  |  | H37Rv |  | MIC | 128 µg/mL
O=C(O)CCC(NC(=O)c1ccc(Nc2cnc3cc(C(F)(F)F)ccc3n2)cc1)C(=O)O |  | 12.5 µg/mL | H37Rv | BACTEC | inhibition | 18%
CCCCCCCC1=C(C)C(=O)c2[nH]c3ccccc3c2C1=O |  |  | H37Rv |  | MIC | 117 µM
CC(=O)n1cc(/C=C2/N=C(c3ccc([N+](=O)[O-])cc3)OC2=O)c2ccccc21 |  |  | H37Rv | BACTEC | MIC bound | >12.5 µg/mL
CO[C@H]1/C=C/O[C@@]2(C)Oc3c(C)c(O)c4c(=O)c(c5oc6cc(N7CCN(CC(C)C)CC7)cc(=O)c6nc5c4c3=C2O)NC(=O)/C(C)=C\C=C\[C@H](C)[C@H](O)[C@@H](C)[C@@H](O)[C@@H](C)[C@H](OC(C)=O)[C@@H]1C |  |  | Erdman |  | MIC | 0.002 µg/mL
CCCCCCOc1ccc(NC(=O)OCCN2CCCCC2)cc1 |  |  | My 331/88 |  | MIC | 32 µM
COc1cc(C=O)cc(Oc2ccc(CC(=O)O)cc2[N+](=O)[O-])c1O |  |  | H37Rv |  | MIC | 1000 µg/mL
CCOc1ccc(/C=C2\N=C(c3ccccc3)OC2=O)cc1OCC |  | 12.5 µg/mL | H37Rv | BACTEC | inhibition | 37%
O=C(NN1C(=O)CS(=O)(=O)C1c1ccccc1F)c1ccncc1 |  |  | H37Rv |  | MIC | 5 µg/mL
CCOC(=O)NC(=S)[S][Sb]([S]C(=S)NC(=O)OCC)[S]C(=S)Nc1ccc(S(=O)(=O)Nc2ccc(N=Nc3ccccc3)cc2)cc1 |  |  | H37Rv | BACTEC | MIC | 32 µg/mL
Cc1c(-c2ccccc2)c(=O)oc2ccc(-c3cc(-c4ccc(Cl)cc4)c4oc5ccccc5c4n3)cc12 |  | 250 µg/mL | H37Rv | agar / visual reading | inhibition | 64%
OCCN1CCN(CCO)C1=S |  |  | H37Rv | BACTEC | MIC bound | >12.5 µg/mL
CCCCCCCOc1ccccc1NC(=O)OCCN1CCCCC1 |  |  | My 331/88 |  | MIC | 16 µM
O=C(c1ccncc1)N(/N=C/c1ccc(Cl)cc1Cl)C(=O)c1cnccn1 |  |  | 9 isolates (resistant) |  | MIC | >16 µg/mL
O=C1C2=C(OC(c3ccc(F)cc3)CC2)C(=O)c2ccccc21 |  |  | H37Rv |  | MIC | >100 µg/mL
Cn1c(=O)c2c(c3ccccc31)OC(C)(C)C=C2 |  |  | H37Rv | BACTEC | MIC bound | >12.5 µg/mL
O=C(c1ccncc1)N1CCC(NS(=O)(=O)c2ccc(-n3cccn3)cc2)CC1 |  |  |  |  | MIC | 6.3 µM
COC(=O)c1cc(OC)c(OC)c(Oc2c(N)cc(C=O)cc2OC)c1 |  |  | H37Rv |  | MIC | 62.5–125 µg/mL
Cc1cccc2c(CN3CCCC3)c(-c3ccccc3)[nH]c12 |  |  |  |  | MIC | 12.5 µM
Cc1ccc(C2CCC3=C(O2)C(=O)c2ccccc2C3=O)c(C)c1 |  |  | H37Rv |  | MIC | >100 µg/mL

Repeating the final 8 entries:

SMILES	mutations	tested at	strain or isolate	method	measure	value
CCCCCCCOc1ccccc1NC(=O)OCCN1CCCCC1			My 331/88		MIC	16 µM
O=C(c1ccncc1)N(/N=C/c1ccc(Cl)cc1Cl)C(=O)c1cnccn1			9 isolates (resistant)		MIC	>16 µg/mL
O=C1C2=C(OC(c3ccc(F)cc3)CC2)C(=O)c2ccccc21			H37Rv		MIC	>100 µg/mL
Cn1c(=O)c2c(c3ccccc31)OC(C)(C)C=C2			H37Rv	BACTEC	MIC bound	>12.5 µg/mL
O=C(c1ccncc1)N1CCC(NS(=O)(=O)c2ccc(-n3cccn3)cc2)CC1					MIC	6.3 µM
COC(=O)c1cc(OC)c(OC)c(Oc2c(N)cc(C=O)cc2OC)c1			H37Rv		MIC	62.5–125 µg/mL
Cc1cccc2c(CN3CCCC3)c(-c3ccccc3)[nH]c12					MIC	12.5 µM
Cc1ccc(C2CCC3=C(O2)C(=O)c2ccccc2C3=O)c(C)c1			H37Rv		MIC	>100 µg/mL

An empty or dashed field is not shown. MIC bound comes from a single tested concentration. ECn is the concentration giving n% inhibition of infection, replication or growth. A number after MIC or MFC names an inhibition level or a share of isolates. Inhibition is in % at the dose shown (toxicity tests: loss of growth or viability). a–b is a range or a potency band.